# Measurements: US11542313B2 (Eli Lilly and Company, priority 2017, dated 2023)
# Test: general procedure: Fmoc solid-phase peptide synthesis; Fmoc-Rink-MBHA Low Loading Resin, 1% DVB cross-linked polystyrene, 100-200 mesh, 0.3-0.4 meq/g (EMD Millipore); diisopropylcarbodiimide/Oxyma; PyAOP/DIPEA for fatty acid-linker
# Conditions: whole synthesis, analytical RP-HPLC, TFA salt
substance,measurement,value
Y-Aib-QGTFTSDYSI-αMeL-LDKK((2-[2-(2-2-amino-ethoxy)-ethoxy]-acetyl)2-(γGlu)-CO—(CH2)18—CO2H)AQ-αMeK-AFIEYLLA-Aib-GPSSGAPPPS-NH2.,final HPLC purity,98.8%
